Source: article PMC1197287 (PLoS Biology, 2005)

Sequences of proteins named here, by UniProt entry; tags and fusion partners are left off. Residues count along the entry.
UniProt Q98VG9, 2904-3205 limits assumed: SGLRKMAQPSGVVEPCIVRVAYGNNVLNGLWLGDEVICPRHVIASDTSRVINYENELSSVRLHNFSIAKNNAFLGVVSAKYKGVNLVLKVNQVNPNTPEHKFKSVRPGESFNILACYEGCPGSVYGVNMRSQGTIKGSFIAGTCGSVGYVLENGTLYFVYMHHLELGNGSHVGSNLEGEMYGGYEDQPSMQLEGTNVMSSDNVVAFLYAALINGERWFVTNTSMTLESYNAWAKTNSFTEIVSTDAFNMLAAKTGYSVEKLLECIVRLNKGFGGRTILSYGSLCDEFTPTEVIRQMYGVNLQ
UniProt P0C6X1, 2966-3265 limits assumed: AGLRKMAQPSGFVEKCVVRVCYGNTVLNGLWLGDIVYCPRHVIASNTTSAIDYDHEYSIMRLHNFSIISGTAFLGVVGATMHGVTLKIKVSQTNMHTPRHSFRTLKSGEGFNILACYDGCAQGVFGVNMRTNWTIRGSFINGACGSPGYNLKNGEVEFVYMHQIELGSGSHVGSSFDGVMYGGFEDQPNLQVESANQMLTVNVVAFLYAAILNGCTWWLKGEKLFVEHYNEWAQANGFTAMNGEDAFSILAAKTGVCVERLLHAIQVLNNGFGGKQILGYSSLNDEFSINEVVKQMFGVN
UniProt P0C6X9, 3334-3635 limits assumed: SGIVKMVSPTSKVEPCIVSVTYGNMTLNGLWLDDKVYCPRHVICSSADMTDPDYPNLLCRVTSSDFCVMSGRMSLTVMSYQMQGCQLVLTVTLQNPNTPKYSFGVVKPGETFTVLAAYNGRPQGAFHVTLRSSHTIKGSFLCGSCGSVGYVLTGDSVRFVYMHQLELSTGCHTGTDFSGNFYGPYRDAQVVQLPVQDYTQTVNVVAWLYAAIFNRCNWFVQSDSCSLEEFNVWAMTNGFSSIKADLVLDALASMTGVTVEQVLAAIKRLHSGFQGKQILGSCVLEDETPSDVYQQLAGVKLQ
UniProt P0C6Y5, 2879-3180 limits assumed: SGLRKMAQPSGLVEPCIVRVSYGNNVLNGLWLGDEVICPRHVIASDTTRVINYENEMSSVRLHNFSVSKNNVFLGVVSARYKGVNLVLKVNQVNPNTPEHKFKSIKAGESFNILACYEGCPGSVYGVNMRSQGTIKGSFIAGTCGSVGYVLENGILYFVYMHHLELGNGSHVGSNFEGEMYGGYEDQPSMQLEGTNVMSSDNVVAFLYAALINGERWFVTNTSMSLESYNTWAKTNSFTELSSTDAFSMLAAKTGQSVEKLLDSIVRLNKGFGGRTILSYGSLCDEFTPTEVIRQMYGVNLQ

What was measured:
Assay type in all cases: biochemical
[1] = biological target: FIPV M^pro (Feline coronavirus, UniProt Q98VG9); test: M^pro inhibition assay (continuous fluorogenic kinetic assay); details: approximation of k3/Ki, error less than 20%
[2] = biological target: HCoV-229E M^pro (Human coronavirus 229E, UniProt P0C6X1); test: as above
[3] = biological target: IBV M^pro (Avian infectious bronchitis virus, UniProt P0C6Y3); test: as above
[4] = biological target: MHV M^pro (Murine coronavirus, UniProt P0C6X9); test: as above; details: approximation of k3/Ki, error less than 20%
[5] = biological target: SARS-CoV M^pro (Severe acute respiratory syndrome coronavirus, UniProt P0C6X7); test: as above
[6] = biological target: TGEV M^pro (Porcine transmissible gastroenteritis coronavirus, UniProt P0C6Y5); test: as above
[7] = system: CoV M^pros; test: M^pro inhibition assays, stated across several CoV M^pros

With `CCOC(=O)/C=C/[C@H](C[C@@H]1CCNC1=O)NC(=O)[C@H](CC(C)C)NC(=O)[C@@H](NC(=O)[C@@H](NC(=O)c1ccco1)C(C)C)C(C)C` the “kobs/[I]” value [1] was 23,000 M^−1•s^−1, the Ki [2] was 0.9 µM and the k3 ([2]; inactivation rate constant) was 12.1 ± 0.7 × 10^−3s^−1. The Ki [3] was 4.9 µM, the k3 ([3]; inactivation rate constant) was 5.6 ± 0.1 × 10^−3s^−1 and the “kobs/[I]” value [4] was 660 M⁻¹ s⁻¹. The Ki [5] was 6.7 µM, the k3 ([5]; inactivation rate constant) was 2.6 ± 0.2 × 10^−3s^−1 and the Ki [6] was 7.8 µM. The k3 ([6]; inactivation rate constant) was 19.5 ± 0.9 × 10^−3s^−1, the “in vitro inactivation of all CoV M^pros tested” value ([7]; preliminary inhibition assays, TGEV, HCoV-229E, FIPV, HCoV-NL63, MHV, HCoV-HKU1, SARS-CoV, IBV) was “fast in vitro inactivation” and the “k3, range over CoV M^pros” value ([7]; range over the M^pros of Table 1) was 2.6–19.5 × 10^−3s^−1. The Ki ([7]; read-out: Ki, range over CoV M^pros, range over the M^pros of Table 1) was 0.9 to 6.7 µM.
